The subject of the data set is A. gambiae labellum sensilla (purine-sensitive cell). Nature of the data set: Tip recording of action potentials from A. gambiae labellum sensilla in response to agonists. The format is cell-based, Anopheles gambiae. The note with it: for Spike amplitude (mean±s.e.m.): 200 pM ATP, 200 pM adenosine, 1 mM sucrose. Here is the method: The tip recording method was used to record action potentials (spikes) from sensory cells in sensilla on A. gambiae labellum lobes.
Sensilla were exposed to test compounds and PR antagonists for ca. 2-4 s and spikes were counted in the first 2 s of recordings. Up to 4 test compounds were tested on a sensillum to evaluate potential agonists, each presented at 200 pM. To study responses as a function of dose for agonists ATP, adenosine, AMP, AMP-CPP and ATP+adenosine, up to 7 recordings were made at increasing doses of agonist from the same sensillum. Unless otherwise stated, recordings were made throughout from 4 to 16 sensilla from individual 4-6-day-old females per dose of agonist, antagonist and metal ion modulator. For example, a response curve established over 6 doses of an antagonist using 8 sensilla per dose involved recording from a sensillum of 48 separate mosquitoes. A given dose of a PR antagonist or metal ion modulator was only presented once to a sensillum. Two-second recordings were imported as ASCII files into DataView software for analysis of spike amplitude. […]
Spike counts elicited by 200 pM doses of nucleotides, nucleosides, purines, pyrimidines and water were log(x+1.25)-transformed (optimal constant numerically established using a maximum likelihood procedure) and analysed using a linear mixed effects model (function ‘lme’ in “nlme” R package) with mosquito number as random effect. […] Spike counts elicited by ATP, AMP, adenosine and their binary mixtures were analysed using a generalised linear model (LM) of log (x+10) transformed data and differences were identified using post-hoc-Tukey test with Holm's FWEC. […]
Dose-response models fitted to mosquito data were generated using the ‘drm’ command in the “drc” R package (version 2.5-12). Best fitting models (goodness of fit) and effects of dose of a compound were assessed using, respectively, ‘modelFit’ and ‘noEffect’ functions in the same R package. A 3-parameter logistic model (L3) was fitted to spike-counts recorded to increasing doses of adenosine, AMP, ATP and AMP-CPP. […]

Regarding `OC[C@H]1O[C@@](CO)(O[C@H]2O[C@H](CO)[C@@H](O)[C@H](O)[C@H]2O)[C@@H](O)[C@@H]1O` [sucrose, D-(+)-sucrose], the “Spike amplitude (mean±s.e.m.)” value is on record as 4.44 mV. Moreover, the “Spike amplitude relative to that elicited by ATP or adenosine” value (1 mM sucrose vs 200 pM ATP) is listed as 1.7 times.

Regarding `Nc1ncnc2c1ncn2[C@@H]1O[C@H](CO)[C@@H](O)[C@H]1O` [Adenosine, 9-β-D-Ribofuranosyladenine], the “Spike amplitude (mean±s.e.m.)” value is 2.57 mV.

Source of the values: patent US20250057791A1, “PROTECTION AGAINST ARTHROPOD PARASITES WITH PURINERGIC RECEPTOR (OPR) ANTAGONISTS” (priority 2021, published 2025).
